Source: PubChem BioAssay AID328 (DTP/NCI, 2004)
Toxic doses and inconclusive results are not listed. The calls were made as follows: active = survival T/C of 150% or more; inactive = T/C below 125% in these data.

System: BDF1 mice, P388 leukemia ip, median survival T/C
Test: NCI In Vivo Anticancer Drug Screen. Data for tumor model P388 Leukemia (intraperitoneal) in B6D2F1 (BDF1) mice
Settings: endpoint: median survival time, schedule: Q01DX009 (ip), vehicle: saline with Tween-80, higher = longer survival
Experimental: The antitumor activity of compounds was measured in mice bearing transplantable tumors. Survival or tumor size were measured and the results are expressed as the measurement made in the treated group (T) divided by the measurement made in the vehicle treated control group (C). The tumor model used in this assay is P388 Leukemia (intraperitoneal) in B6D2F1 (BDF1) mice

Measured: T/C

[Fe].[c-]1[c-][c-][cH-][c-]1.[c-]1[c-][c-][cH-][c-]1
inactive: dose: 25.0 mg/kg/injection 90 % of control | dose: 50.0 mg/kg/injection 106 % of control | dose: 100.0 mg/kg/injection 100 % of control
